Results of unrelated studies side by side (data: NIAID ChemDB).

Shared fields: target-level tests; agent: HIV-1; target: Protease; read by: HPLC; endpoint: IC50

Rows are shuffled and stem from different studies.

compound	mutations	value
CC1(C)CC[C@]2(C(=O)O)CC[C@]3(C)C(=CCC4[C@@]5(C)CC[C@H](NC(=O)CCCCC(=O)N[C@H]6CC[C@@]7(C)C(CC[C@]8(C)C7CC=C7C9CC(C)(C)CC[C@]9(C(=O)O)CC[C@]78C)C6(C)C)C(C)(C)C5CC[C@]43C)C2C1		3.3 µM
Oc1cc(O)cc(Oc2c(O)cc(O)c3c2Oc2c(cc(O)c(-c4c(O)cc5c(c4O)Oc4c(Oc6cc(O)cc(O)c6)c(O)cc(O)c4O5)c2O)O3)c1		81.5 µM
CC(C)C[C@H](NC(=O)C(NC(=O)[C@@H](N)C(C)C)c1cc(O)cc(O)c1)C(=O)N[C@H](Cc1ccccc1)C(=O)C(=O)N[C@H](C(=O)N[C@H](C(=O)N[C@@H](CC(=O)O)C(=O)O)C(C)C)C(C)C		0.26 µM
CC(C)CC(NC(=O)[C@H](C)NC(=O)C[C@H](O)C(CC(C)C)NC(=O)[C@@H](NC(=O)[C@H](Cc1ccc(O)cc1)NC(=O)OCc1ccccc1)C(C)C)[C@@H](O)CC(=O)NCCCCNc1ccn([C@H]2CS[C@@H](CO)O2)c(=O)n1		0.6 µM
Oc1cc(O)cc(Oc2c(O)cc(O)c3c2Oc2c(O)cc(O)cc2O3)c1		>100 µM
C[C@H]1[C@H](C)CC[C@]2(C(=O)O)CC[C@]3(C)C(=CC[C@@H]4[C@@]5(C)CC[C@H](OC(=O)C(=O)O)C(C)(C)[C@@H]5CC[C@]43C)[C@H]12		7 µM
COC(=O)CC[C@H](NC(=O)CNCC(O)[C@H](CC1CCCCC1)NC(=O)OC(C)(C)C)C(=O)NCCCc1ccccc1		0.6 µM
C=CC[C@H](NC(=O)[C@H](Cc1ccccc1)NS(=O)(=O)N1CCOCC1)C(=O)N[C@@H](CC1CCCCC1)[C@@H](O)C[C@H](C(=O)NCCCC)C(C)C		0.015 µM
CCCCCCCCCCCCCC(=O)N[C@@H](Cc1ccccc1)C(=O)O		44 µM
CCCC[C@@H](CN[C@@H](CCC(N)=O)C(=O)N[C@@H](CCCN=C(N)N)C(N)=O)NC(=O)[C@H](CCCC)NC(=O)C(NC(=O)C(NC(C)=O)[C@@H](C)O)[C@@H](C)CC	PR-D30N	>2.17 µM
COC(=O)[C@]12CCC(C)(C)CC1C1=CCC3[C@@]4(C)CC[C@@H](NC(=O)CCCCC(=O)O)C(C)(C)C4CC[C@@]3(C)[C@]1(C)CC2		3.5 µM
CC(C)(C)OC(=O)N[C@@H](Cc1ccccc1)[C@@H](O)C[N+](C)(C)/N=C(\[O-])c1ccccc1		14 µM
COC(=O)[C@]12CCC(C)(C)C[C@H]1C1=CC[C@@H]3[C@@]4(C)CC[C@H](O)C(C)(C)[C@@H]4CC[C@@]3(C)[C@]1(C)CC2		20 µM
COC(=O)[C@H](Cc1ccccc1)NC(=O)[C@H](CCC(=O)OCC1CCCCC1)NC(=O)C[C@H](O)C(CC(C)C)NC(=O)[C@@H](NC(=O)[C@H](Cc1c[nH]c2ccccc12)NC(=O)CCCCC(=O)Nc1ccn([C@H]2CS[C@@H](CO)O2)c(=O)n1)C(C)C		0.01 µM
CC(C)(C)OC(=O)N[C@@H](Cc1ccccc1)[C@@H](O)C[N+](C)(Cc1ccccc1)/N=C(\[O-])C1CCCC1		0.85 µM
CCC(C)[C@H](NC(=O)[C@H](Cc1ccccc1)[C@@H](O)C[C@H](Cc1ccccc1)NC(=O)[C@H](Cc1cnc[nH]1)NC(=O)COc1cccc2ccccc12)C(=O)NCc1ccccn1		0.8 µM
O=C(O)/C=C/c1ccc(O)c(O)c1		>100 µM
CC(C)(C)OC(=O)N[C@@H](Cc1ccccc1)[C@@H](O)C[N+](C)(Cc1ccccc1)/N=C(\[O-])c1ccc(N)cc1		45 µM
CC(C)C[C@H](NC(=O)[C@H](C)NC(=O)C[C@H](O)[C@H](CC(C)C)NC(=O)[C@@H](NC(=O)[C@H](Cc1ccc(O)cc1)NC(=O)OCc1ccccc1)C(C)C)[C@@H](O)CC(=O)O		0.06 µM
C[N+](Cc1ccccc1)(C[C@H](O)[C@H](Cc1ccccc1)NC(=O)N1CCOCC1)/N=C(\[O-])c1ccccc1		6 µM
COC(=O)[C@]12CCC(C)(C)C[C@H]1C1=CC[C@@H]3[C@@]4(C)CC[C@H](OC(=O)CCCCC(=O)O)C(C)(C)[C@@H]4CC[C@@]3(C)[C@]1(C)CC2		7.5 µM
CC1(C)CC[C@]2(C(=O)O)CC[C@]3(C)C(=CCC4[C@@]5(C)CC/C(=N\OC(=O)CCCCC(=O)O)C(C)(C)C5CC[C@]43C)C2C1		5.5 µM
CC(C)(C)OC(=O)N[C@H](CN[C@@H](CC1CC1)C(=O)N[C@@H](CCC(=O)O)C(=O)NCCCc1ccc(F)cc1)Cc1ccccc1		0.008 µM
CCCCCCCCCCCCCC(=O)N[C@H](Cc1ccccc1)C(=O)O		32 µM
CC(C)(C)OC(=O)N[C@@H](Cc1ccccc1)[C@@H](O)C[N+](C)(Cc1ccccc1)/N=C(\[O-])Cc1ccccc1		1 µM
C[C@@H]1CC[C@]2(C(=O)O)CC[C@]3(C)C(=CCC4[C@@]5(C)CC[C@H](OC(=O)CCCC(=O)O)C(C)(C)C5CC[C@]43C)C2[C@H]1C		4 µM
CC(C)CC(NC(=O)[C@H](C)NC(=O)C[C@H](O)C(CC(C)C)NC(=O)[C@@H](NC(=O)[C@H](Cc1ccc(O)cc1)NC(=O)OCc1ccccc1)C(C)C)[C@@H](O)CC(=O)Nc1ccn([C@H]2CS[C@@H](CO)O2)c(=O)n1		0.2 µM
CC1(C)CC[C@]2(C(=O)O)CC[C@]3(C)C(=CCC4[C@@]5(C)CC[C@H](NC(=O)CCCCC(=O)O)C(C)(C)C5CC[C@]43C)C2C1		3 µM

A second listing of 2 rows from above:

{"compound": "CC(C)CC(NC(=O)[C@H](C)NC(=O)C[C@H](O)C(CC(C)C)NC(=O)[C@@H](NC(=O)[C@H](Cc1ccc(O)cc1)NC(=O)OCc1ccccc1)C(C)C)[C@@H](O)CC(=O)Nc1ccn([C@H]2CS[C@@H](CO)O2)c(=O)n1", "value": "0.2 µM"}
{"compound": "CC(C)(C)OC(=O)N[C@@H](Cc1ccccc1)[C@@H](O)C[N+](C)(Cc1ccccc1)/N=C(\\[O-])Cc1ccccc1", "value": "1 µM"}

ICn: concentration for n% inhibition. Blank or dashed fields: not listed here.